Values from PubChem BioAssay AID504761 (Drosophila RNAi Screening Center, 2011)

- Aim: 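Insect host genes that dengue virus relies on to spread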 (primary screen)
- System: D.Mel-2 cells from Drosophila
- Reagent: long dsRNA against Drosophila genes
- Treatment: infection with dengue virus type 2; dose and infection time not stated
- Detection: 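Cells stained for dengue envelope protein and imaged; percent of infected cells per well on duplicate plates, ranked by infection, with stained nuclei counted for cell number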
- Direction: infection score: higher = more virus-infected cells
- Hit rule: 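Very low infection ranking in both replicate wells (chance probability at most 0.065), then a retest showing infection dropped 1.5-fold or more at p below 0.05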
- Calls: active = confirmed: knock-down lowers infection; inactive = not picked or not confirmed
The screen tested about 22,000 reagents; this is a random part of those that have a named target and a result. Over the whole deposit, 116 (0.52%) were called active. 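Calls depend on retest data that are not deposited; infection was ranked per plate without normalising between plates; the unit of the infection score is not given.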 A number with no mark means an inactive call. Not all columns of the deposit are shown. The record does not give: the amount of reagent, the time to read-out.

gl (GeneID 42210) [DRSC27242] — infection score, replicate 1 = 6.83
drongo (GeneID 33263) [DRSC00814] — infection score, replicate 1 = 1.85
drongo (GeneID 33263) [DRSC25074] — infection score, replicate 1 = 4.44
CG33337 (GeneID 2768678) [DRSC13632] — infection score, replicate 1 = 5.24
CG33337 (GeneID 2768678) [DRSC27000] — infection score, replicate 1 = 10.3
CG10055 (GeneID 40862) [DRSC12503] — infection score, replicate 1 = 3.35
Cnx99A (GeneID 44643) [DRSC25426] — infection score, replicate 1 = 9.54
shn (GeneID 36171) [DRSC05266] — infection score, replicate 1 = 1.33
shn (GeneID 36171) [DRSC07681] — infection score, replicate 1 = 11.1
CG10462 (GeneID 35260) [DRSC02058] — infection score, replicate 1 = 3.1
Glt (GeneID 34193) [DRSC03333] — infection score, replicate 1 = 24.6
Glt (GeneID 34193) [DRSC28681] — infection score, replicate 1 = 21.1
narya (GeneID 32932) [DRSC19439] — infection score, replicate 1 = 5.13
Sol1 (GeneID 41513) [DRSC15263] — infection score, replicate 1 = 29.3
Sol1 (GeneID 41513) [DRSC15271] — infection score, replicate 1 = 9.42
Sol1 (GeneID 41513) [DRSC15681] — infection score, replicate 1 = 9.63
